Pooled drug test results. Numbers come from NIAID ChemDB, via PubChem.

Shared fields: growth or infection tests; organism: HIV-2; measure: EC50

Neighbouring rows are from separate reports. An empty or dashed field is not shown. ECn is the concentration giving n% inhibition of infection, replication or growth.

compound | cell line | read by | strain or isolate | value
Cc1cn(C2OC(CO[Si](C)(C)C(C)(C)C)C3(OS(=O)(=O)C=C3N)C2O[Si](C)(C)C(C)(C)C)c(=O)n(/C=C\CO)c1=O | CEM | syncytia | ROD | >25 µM
O=C1C=CC(=C(c2ccc(O)cc2)c2ccc(O)cc2)C=C1 | MOLT-4 | syncytia | ROD | >100 µg/mL
O=C1c2ccc(Cl)cc2C(=O)N1C12CC3CC(CC(C3)C1)C2 | CEM | syncytia | ROD | >110 µM
CCOC(=O)CNc1nc(Nc2ccc(Br)cc2)nc(Oc2cc(=O)oc3ccccc23)n1 | MT-4 | MTT | ROD | >51.28 µg/mL
Oc1cccc(O)c1O | MOLT-4 | syncytia | ROD | 9 µg/mL
Cc1cccc(Nc2ccccc2C(=O)Nc2ccc(C(=O)/C=C/c3ccc(Br)cc3)cc2)c1C | MT-4 | MTT / absorbance | ROD | >12.68 µM
Cc1ccc(C)c(CSc2c(Cl)ccc[n+]2[O-])c1 | CEM | syncytia | EHO | ≥20 µg/mL
O=C(NC12CC3CC(CC(C3)C1)C2)c1ccc([N+](=O)[O-])cc1 | CEM | syncytia | ROD | >66.2 µM
O=c1ccn([C@H]2C[C@H](F)[C@@H](CO)O2)c(=O)[nH]1 | MT-4 | cytopathic effect | LAV-2 | 0.16 µM
NS(=O)(=O)c1ccc(-c2c3nc(c(-c4ccc(S(N)(=O)=O)cc4)c4ccc([nH]4)c(-c4ccc(S(N)(=O)=O)cc4)c4nc(c(-c5ccc(S(N)(=O)=O)cc5)c5ccc2[nH]5)C=C4)C=C3)cc1 | MT-4 | cytopathic effect / MTT | ROD | >5 µg/mL
Cc1cccc(C)c1N1C(=O)c2ccc([N+](=O)[O-])cc2C1=O | CEM | syncytia | ROD | >667 µM
O=C(O)c1cc(O)c(O)c(O)c1 | MT-4 | cytopathic effect / MTT | ROD | 12 µg/mL
Cc1cccc(Nc2ccccc2C(=O)Nc2ccc(C(=O)/C=C/c3ccccc3)cc2)c1C | MT-4 | MTT / absorbance | ROD | >125 µM
CCCCCO[C@]12CS(=O)(=O)O[C@@]13[C@@H](CN2)O[C@@H](n1cc(C)c(=O)[nH]c1=O)[C@@H]3O[Si](C)(C)C(C)(C)C | MT-4 | - | ROD | >5 µM
O=C(O)c1ccc(O)c(O)c1 | MOLT-4 | syncytia | ROD | 5 µg/mL
CCCCO[C@]12CS(=O)(=O)O[C@@]13[C@@H](CN2)O[C@@H](n1cc(C)c(=O)[nH]c1=O)[C@@H]3O | CEM | - | ROD | >125 µM
Cc1ccc(C(C)S(=O)(=O)c2c(C)ccc[n+]2[O-])c(C)c1 | CEM | syncytia | EHO | >100 µg/mL
CC1(C)[C@@H](CO)CC[C@@]1(C)Cn1nnc2c(N)ncnc21 | CEM + CEM/0 | - | - | >100 µg/mL
Nc1ncnc2c1ncn2C(CF)CCCO | CEM | cytopathic effect | ROD | >100 µg/mL
COc1ccc(CCNc2nc(NC(=O)Nc3ccccc3Cl)nc(Oc3cc(=O)oc4ccccc34)n2)cc1OC | MT-4 | MTT | ROD | >51.15 µg/mL
Cc1ccc(/C=C/C(=O)c2ccc(NC(=O)c3ccccc3Nc3cccc(C)c3C)cc2)cc1 | MT-4 | MTT / absorbance | ROD | >76.9 µM
Cc1cn([C@@H]2O[C@@H]3CN[C@@]4(C(N)=O)CS(=O)(=O)O[C@@]34[C@H]2O)c(=O)[nH]c1=O | MT-4 | - | ROD | >250 µM
Nc1ccc(C(=O)NC23CC4CC(CC(C4)C2)C3)cc1 | CEM | syncytia | ROD | >73.5 µM
COc1ccc(CCNc2nc(NC(=O)Nc3ccc(Cl)cc3)nc(Oc3cc(=O)oc4ccccc34)n2)cc1OC | MT-4 | MTT | ROD | >35.43 µg/mL
Cc1ccc(C)c(C(C)S(=O)(=O)c2ccc(C)c[n+]2[O-])c1 | CEM | syncytia | EHO | >100 µg/mL
Cc1cn([C@@H]2O[C@@H]3CN[C@@]4(O[Si](C)(C)C(C)(C)C)CS(=O)(=O)O[C@@]34[C@H]2O[Si](C)(C)C(C)(C)C)c(=O)[nH]c1=O | CEM | - | ROD | >2 µM
Cc1cn([C@H]2C=C[C@@H](CO)O2)c(=O)[nH]c1=O | MT-4 | cytopathic effect | LAV-2 | 0.09 µM
COc1ccccc1NC(=S)Nc1nc(NCCc2ccc(OC)c(OC)c2)nc(Oc2cc(=O)oc3ccccc23)n1 | MT-4 | MTT | ROD | >19.63 µg/mL
Cc1cn([C@@H]2O[C@@H]3CN[C@@]4(OCc5ccccc5)CS(=O)(=O)O[C@@]34[C@H]2O)c(=O)[nH]c1=O | CEM | - | ROD | >250 µM
CCOC(=O)CNc1nc(Nc2ccccc2)nc(Oc2cc(=O)oc3ccccc23)n1 | MT-4 | MTT | ROD | >61.15 µg/mL
Cc1cccc(Nc2ccccc2C(=O)Nc2ccc(C(=O)/C=C/c3ccc(N(C)C)cc3)cc2)c1C | MT-4 | MTT / absorbance | ROD | >2.06 µM
CC1(C)[C@@H](CO)CC[C@@]1(C)Cn1cnc2c(Cl)ncnc21 | CEM + CEM/0 | - | - | >14 µg/mL
Cc1cc(C)c(-c2c3nc(c(-c4c(C)cc(C)cc4C)c4ccc([nH]4)c(-c4c(C)cc(C)cc4C)c4nc(c(-c5c(C)cc(C)cc5C)c5ccc2[nH]5)C=C4)C=C3)c(C)c1 | MT-4 | cytopathic effect / MTT | ROD | 1 µg/mL
Cc1cn([C@@H]2O[C@H](C3CO[Si](C(C)C)(C(C)C)O[Si](C(C)C)(C(C)C)O3)C3(OS(=O)(=O)C=C3N)[C@H]2O[Si](C)(C)C(C)(C)C)c(=O)[nH]c1=O | MT-4 | cytopathic effect | ROD | >26.7 µM
O=C1c2ccc(O)cc2C(=O)N1C12CC3CC(CC(C3)C1)C2 | CEM | syncytia | ROD | >13.3 µM
Cc1cn([C@@H]2O[C@@H]3CN[C@@]4(OCc5ccccc5)CS(=O)(=O)O[C@@]34[C@H]2O[Si](C)(C)C(C)(C)C)c(=O)[nH]c1=O | CEM | - | ROD | >10 µM
CC1(C)[C@@H](CO)CC[C@@]1(C)Cn1cnc2c(N)ncnc21 | CEM + CEM/0 | - | - | >100 µg/mL
Cc1cn([C@@H]2O[C@@H]3CN[C@@]4(C#N)CS(=O)(=O)O[C@@]34[C@H]2O[Si](C)(C)C(C)(C)C)c(=O)[nH]c1=O | CEM | - | ROD | >50 µM
CC1(C)[C@@H](CO)CC[C@@]1(C)Cn1cc(Br)c(=O)[nH]c1=O | CEM + CEM/0 | - | - | >100 µg/mL
Cc1ccc(C)c(C(C)S(=O)(=O)c2c(C)ccc[n+]2[O-])c1 | CEM | syncytia | EHO | >20 µg/mL
COc1ccc(CCNc2nc(NC(=S)Nc3ccccc3)nc(Oc3cc(=O)oc4ccccc34)n2)cc1OC | MT-4 | MTT | ROD | >15.45 µg/mL
Cc1cc(O)ccc1O | MOLT-4 | syncytia | ROD | 22 µg/mL
Cc1cn(C2OC(CO[Si](C)(C)C(C)(C)C)C3(OS(=O)(=O)C=C3N)C2O[Si](C)(C)C(C)(C)C)c(=O)n(CC(=O)N(CCCl)CCCl)c1=O | CEM | syncytia | ROD | ≥125 µM
Cc1cccc(C)c1N1C(=O)c2ccc(C(=O)O)cc2C1=O | CEM | syncytia | ROD | >133 µM
CC(C)[C@H](CC[C@@H](C)[C@H]1C[C@H](OS(=O)(=O)O)[C@H]2[C@@H]3[C@H](O)[C@H](O)[C@H]4C[C@@H](O)CC[C@]4(C)[C@H]3CC[C@@]21C)OC1OC[C@@H](O)[C@H](O)[C@@H]1O | CEM + CEM-SS | cytopathic effect / XTT | CLB20 | >100 µM
Cc1cn([C@@H]2O[C@H](C(COC(=O)c3ccccc3)OC(=O)c3ccccc3)C3(OS(=O)(=O)C=C3N)[C@H]2O[Si](C)(C)C(C)(C)C)c(=O)[nH]c1=O | MT-4 | cytopathic effect | ROD | >5.6 µM
CC(C)CCC[C@@H](COS(=O)(=O)[O-])[C@H]1CCC2C3CC[C@H]4C[C@H](OS(=O)(=O)[O-])CC[C@]4(C)C3CC[C@@]21C.[Na+].[Na+] | CEM + CEM-SS | cytopathic effect / XTT | CLB20 | 63 µM
Cc1cn(C2OC(CO[Si](C)(C)C(C)(C)C)C3(OS(=O)(=O)C=C3N)C2O[Si](C)(C)C(C)(C)C)c(=O)n(CCCNC(=O)c2ccc(N=[N+]=[N-])cc2O)c1=O | MT-4 | trypan blue | ROD | >50 µM
CCOC(=O)CNc1nc(Nc2ccc(OCC)cc2)nc(Oc2cc(=O)oc3ccccc23)n1 | MT-4 | MTT | ROD | >62.13 µg/mL
Cc1cn(CCCC(O)CF)c(=O)[nH]c1=O | CEM | cytopathic effect | ROD | >100 µg/mL
CC(C)C(CCOS(=O)(=O)O)CC[C@@H](C)[C@H]1[C@@H](O)[C@H](O)[C@@H]2[C@]1(C)CC[C@H]1[C@@]2(O)C[C@@H](O)[C@@]2(O)C[C@@H](O)CC[C@]12C | CEM + CEM-SS | cytopathic effect / XTT | CLB20 | >100 µM

For reference, 5 entries again:

| compound | cell line | read by | strain or isolate | value |
|---|---|---|---|---|
| Cc1cccc(Nc2ccccc2C(=O)Nc2ccc(C(=O)/C=C/c3ccccc3)cc2)c1C | MT-4 | MTT / absorbance | ROD | >125 µM |
| Cc1cn([C@@H]2O[C@@H]3CN[C@@]4(C(N)=O)CS(=O)(=O)O[C@@]34[C@H]2O)c(=O)[nH]c1=O | MT-4 | - | ROD | >250 µM |
| Cc1cn([C@@H]2O[C@@H]3CN[C@@]4(O[Si](C)(C)C(C)(C)C)CS(=O)(=O)O[C@@]34[C@H]2O[Si](C)(C)C(C)(C)C)c(=O)[nH]c1=O | CEM | - | ROD | >2 µM |
| CCCCCO[C@]12CS(=O)(=O)O[C@@]13[C@@H](CN2)O[C@@H](n1cc(C)c(=O)[nH]c1=O)[C@@H]3O[Si](C)(C)C(C)(C)C | MT-4 | - | ROD | >5 µM |
| Cc1ccc(C(C)S(=O)(=O)c2c(C)ccc[n+]2[O-])c(C)c1 | CEM | syncytia | EHO | >100 µg/mL |